Single amino acid changes in Zika NS2B-NS3 and viral growth

Source: Ni et al. 2025 (doi:10.1038/s41467-025-63602-z), supplementary data.

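Pools of virus carrying all single amino acid changes were selected for growth in Huh-7.5 cells. Sequencing of three replicate libraries (two for positions 207-308) was averaged into one effect per change. The aim was to find sites where inhibitor-binding pockets cannot change.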

Chain scanned (Zika virus MR766; NS2B from position 2 to 131, then the start of NS3):
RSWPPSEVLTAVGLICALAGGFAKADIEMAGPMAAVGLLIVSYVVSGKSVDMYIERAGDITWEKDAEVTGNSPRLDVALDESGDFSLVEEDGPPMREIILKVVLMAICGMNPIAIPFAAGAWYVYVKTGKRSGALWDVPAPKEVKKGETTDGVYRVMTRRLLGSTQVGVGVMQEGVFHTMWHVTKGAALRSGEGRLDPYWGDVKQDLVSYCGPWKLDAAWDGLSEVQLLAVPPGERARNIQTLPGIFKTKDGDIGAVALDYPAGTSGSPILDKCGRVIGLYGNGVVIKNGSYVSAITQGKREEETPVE

Values are log2 effects on growth: 0 is wild type, lower means poorer growth. A change reads original residue, position, new residue. The authors count -1 or higher as tolerated. Position 1 is the last residue of NS2A. The region was split into three libraries (1-103, 104-206, 207-308). An asterisk is a stop codon; stop codons read about -7, near the floor of the assay. Six mutants with high scores were retested singly and none clearly outgrew wild type, so positive values are not proof of better growth.

mutation,effect (log2)
P213*,-8.91
P213A,-1.12
P213C,-1.85
P213D,-6.66
P213E,-7.03
P213F,-2.22
P213G,1.55
P213H,-1.72
P213I,-6.48
P213K,-3.29
P213L,-2.91
P213M,-3.11
P213N,-2.55
P213Q,-3.70
P213R,-2.20
P213S,-2.14
P213T,-2.38
P213V,-5.58
P213W,-3.79
P213Y,-0.69
W214*,-9.11
W214A,-8.19
W214C,-7.99
W214D,-7.19
W214E,-7.49
W214F,-7.24
W214G,-7.07
W214H,-7.21
W214I,-7.27
W214K,-7.85
W214L,-8.72
W214M,-7.74
W214N,-7.29
W214P,-8.04
W214Q,-7.59
W214R,-9.16
W214S,-8.98
W214T,-8.53
W214V,-8.23
W214Y,-7.02
K215*,-8.56
K215A,-4.72
K215C,-4.11
K215D,-5.93
K215E,-6.91
K215F,-6.51
K215G,-4.40
K215H,-6.47
K215I,-6.60
K215L,-6.58
K215M,-2.61
K215N,-7.08
K215P,-7.70
K215Q,-2.91
K215R,0.07
K215S,-3.80
K215T,-4.90
K215V,-5.12
K215W,-6.76
K215Y,-6.35
L216*,-9.49
L216A,-6.67
L216C,-1.21
L216D,-6.34
L216E,-6.89
L216F,-7.32
L216G,-7.71
L216H,-6.42
L216I,-6.18
L216K,-6.88
L216M,-0.28
L216N,-6.40
L216P,-7.26
L216Q,-6.62
L216R,-8.08
L216S,-8.41
L216T,-7.25
L216V,-7.74
L216W,-7.42
L216Y,-6.87

The last 3 entries again:

With L216V the assay gave -7.74.
With L216W the assay gave -7.42.
With L216Y the assay gave -6.87.